Values from PubChem BioAssay AID504761 (Drosophila RNAi Screening Center, 2011).

Aim: 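Genome-wide fly cell screen for genes dengue virus requires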 (primary screen)
System: D.Mel-2 cells from Drosophila
Knock-down reagent: long dsRNA against Drosophila genes
Conditions: infection with dengue virus type 2; dose and infection time not stated
Read-out: 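Cells stained for dengue envelope protein and imaged; percent of infected cells per well on duplicate plates, ranked by infection, with stained nuclei counted for cell number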
Reading the numbers: infection score: higher = more virus-infected cells; cell count: higher = more cells in the well
Hit rule: 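Low infection ranks in the two replicates (chance level up to 0.065) followed by a retest with a 1.5-fold or larger significant decrease, p below 0.05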
Meaning of the calls: active = confirmed: knock-down lowers infection; inactive = not picked or not confirmed
The deposit covers about 22,000 reagents; below is a random part of those with a known target gene and a result. In the full data, 116 (0.52%) are marked active. 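Calls depend on retest data that are not deposited; infection was ranked per plate without normalising between plates; the unit of the infection score is not given.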 Raw values are not corrected between plates. A number with no mark means an inactive call. Not all columns of the deposit are shown. Not stated in the record: the amount of reagent, the time to read-out.

gene | DRSC id | infection score, replicate 1 | infection score, replicate 2 | cell count, replicate 1
CG3527 | DRSC18307 | 8.03 | 2.78 | 1706
CG3527 | DRSC28450 | 12.8 | 4.18 | 3193
Bgb | DRSC08148 | 8.85 | – | 2022
Bgb | DRSC25855 | 0.62 | 4.74 | 6328
Arfrp1 | DRSC18417 | 1.78 | 6.17 | 6790
cass | DRSC01850 | 9.33 | 13.5 | 6556
cass | DRSC29928 | 4.67 | 3.05 | 6378
CG32793 | DRSC18145 | 0.2 | 5.69 | 492
CG32793 | DRSC18194 | – | 8.74 | 397
CG32793 | DRSC28737 | 25.3 | 21.2 | 6170
APC4 | DRSC18360 | 2.5 | 6.74 | 6394
APC4 | DRSC29994 | 10.3 | 12.7 | 6130
l(2)27Cb (retired record) | DRSC02758 | 2.6 | 14.3 | 5079
CkIIbeta | DRSC20230 | 6.51 | 1.07 | 5327
TfAP-2 | DRSC11601 | 6.01 | 4.35 | 6304
Inx7 | DRSC18784 | 0.95 | 1.14 | 6753
Inx7 | DRSC24113 | 2.14 | 2.53 | 6624
PICK1 | DRSC02936 | 8.1 | 4.78 | 6037
CG17472 | DRSC02622 | 4.79 | 17.6 | 6924
Cep135 | DRSC09345 | 0.69 | 0.33 | 5920
Cep135 | DRSC10244 | 3.93 | 9.58 | 6161
CG12477 | DRSC09886 | 3.2 | 1.43 | 6720
CG12477 | DRSC24078 | 9.77 | 14.8 | 4966
bbg | DRSC11077 | 0.53 | 1.63 | 6268
bbg | DRSC11079 | 1.2 | 2.37 | 6064
bbg | DRSC25910 | 19.2 | 14.1 | 6360
bbg | DRSC27292 | 2.54 | 23.1 | 984
Cpr92F | DRSC15819 | 7.78 | 15.3 | 2532
Lrch | DRSC02996 | 13 | 3.65 | 3606
Lrch | DRSC29145 | 9.27 | – | 3668
ry | DRSC17048 | 18.1 | 27.6 | 5923
ry | DRSC27399 | 16.3 | 13.9 | 5117
MBD-like | DRSC16996 | 5.64 | 5.07 | 6157
CarT | DRSC03196 | 27.6 | 36.2 | 6675
CarT | DRSC27070 | 4.71 | 15.1 | 6099
CG14014 | DRSC02345 | 2.54 | 3.07 | 6531
Acox57D-d | DRSC04561 | 4.87 | 6.67 | 6675
Acox57D-d | DRSC30108 | 6.93 | 23.1 | 6119
Targ1 | DRSC11616 | 9.25 | 6.63 | 6204
Cyp6a16Psi (retired record) | DRSC03307 | 3.25 | 7.88 | 6379
Trax | DRSC15709 | 19.4 | 11.8 | 5847
Cf2 | DRSC23015 | 0.88 | 2.72 | 6624
Cf2 | DRSC28177 | 14.1 | 2.18 | 5672
MKP-4 | DRSC19567 | 14.3 | 2.65 | 6213
MKP-4 | DRSC27673 | 3.92 | 15.8 | 6218
Slob | DRSC02296 | 8.41 | 3.34 | 2366
Cpr30B | DRSC02728 | 10.3 | – | 4520
Cpr30B | DRSC25204 | 6.26 | 6.11 | 7177
CG13609 | DRSC14612 | 3.31 | 8.14 | 6372
CG13609 | DRSC22843 | 0.5 | 0.94 | 6538
CG13606 | DRSC14609 | 0.6 (active) | 0.89 | 6948
PTPMT1 | DRSC14235 | 1.39 | 4.19 | 6309
Kat60 | DRSC12378 | 3.85 | 16.6 | 6804
mre11 | DRSC03570 | 7.9 | 5.74 | 6353
mre11 | DRSC22628 | 4.8 | 2.39 | 6417
mre11 | DRSC26311 | 4.17 | 0.76 | 6230
ImpL1 | DRSC11197 | 9.41 | 7.46 | 6123
ImpL1 | DRSC28367 | 10.4 | 13.4 | 6094
CG12539 | DRSC19470 | 7.85 | 8.53 | 6255
CG12539 | DRSC29569 | 4.78 | 6.69 | 1089
PolE1 | DRSC16112 | 15 | 1.03 | 5894
PolE1 | DRSC27613 | 7.64 | 13.6 | 6273
san | DRSC07695 | 4.02 | 8.1 | 5399
IntS4 | DRSC17810 | 2.69 | 0.55 | 3859
CG12376 | DRSC06144 | 14.6 | 4.05 | 6283
CG12376 | DRSC29464 | 24.6 | 17.2 | 4466
Fen1 | DRSC07415 | 7.29 | 15.8 | 6516
Act87E | DRSC22578 | 2.35 | 0.58 | 6301
Act87E | DRSC23961 | 5.57 | 3.48 | 6209
CG5509 | DRSC15822 | 0.86 | 19.8 | 5597
Tsen54 | DRSC10527 | 2.71 | 2.9 | 6233
Tsen54 | DRSC27583 | 10.6 | 3.87 | 5813
CG32683 | DRSC17990 | 12.6 | 8.91 | 1241
CG32683 | DRSC18232 | 8.51 | 8.67 | 5679
CG32683 | DRSC18233 | 18.3 | 5.62 | 3516
CG32683 | DRSC29475 | 5.6 | – | 928
